Measured values from several laboratories, pooled; numbers as filed in NIAID ChemDB.

Shared fields: tests in culture; agent: HIV-1

An empty or dashed field is not shown. ECn is the concentration giving n% inhibition of infection, replication or growth. Conditions beyond the fields shown may differ between rows.

smiles,setting,endpoint,method,mutations,strain,cells,result
CCC(=CCN1Cc2cc(Cl)ccc2NC(=O)C1C)CC,-,EC50,cytopathic effect / MTT,-,-,MT-4,2.6 µM
Nc1nc2c(ncn2C2CC(CO)C2)c(=O)[nH]1,-,EC50,cytopathic effect / XTT,-,IIIB,CEM,230 µM
CC(=O)O[C@@H]1[C@H](OC(=O)CC(C)C)c2c(ccc3ccc(=O)oc23)OC1(C)C,12 d,EC50,p24,-,-,Monocytes,<4 µg/mL
Cc1cn([C@H]2C[C@H](N=[N+]=[N-])[C@@H](CO)O2)c(=O)[nH]c1=O,-,EC50,p24,RT-E89G,-,PBMC,0.02 µM
C[C@]12CC[C@H](OS(=O)(=O)O)CC1=CC[C@@H]1[C@@H]2CC[C@]2(C)C(=O)CC[C@@H]12,-,EC50,RT activity,-,LAV,PBMC,82.3 µM
C[C@@H]1NCc2cc(Cl)ccc2NC1=O,-,EC50,cytopathic effect / MTT,-,-,MT-4,>8.1 µM
CC(C)=CCN1Cc2cc(Cl)cc3[nH]c(=S)n(c23)C[C@@H]1C,-,EC95,-,RT-M41L T215Y K101E,-,MT-4,>3 µM
C[C@]1(/C=C/P(=O)(O)O)CO[C@@H](n2cnc3c(N)ncnc32)C1,-,EC90,-,-,LAI,PBMC,90 µM
CC(C)C1C(=O)Nc2ccc(Cl)cc2CN1Cc1ccco1,-,EC50,cytopathic effect / MTT,-,-,MT-4,7.7 µM
C[C@H](Cn1cnc2c(N)ncnc21)OCP(=O)(O)O,-,EC50,ELISA,-,LAI,MT-2,0.68 µM
Cc1ccnc2c1NC(=O)c1cccnc1N2C1CC1,-,EC50,p24,-,HXB2,PBMC,0.15 µM
CC(C)=CCN1C(=O)c2cc(Cl)ccc2NC(=O)C1C,-,EC50,cytopathic effect / MTT,-,-,MT-4,>100 µM
Nc1ccn([C@H]2O[C@@H](CO)C[C@H]2F)c(=O)n1,-,EC50,-,-,-,PBM,16.4 µM
O=C1N[C@H](Cc2ccccc2)[C@H](O)[C@@H](O)[C@@H](Cc2ccccc2)N1Cc1cccc(-c2ccn[nH]2)c1,-,EC50,-,-,RF,MT-2,<0.067 µM
O=C1C=C2C=C[C@H]3C[C@]2(O1)[C@H]1CCCCN31,-,EC50,MTT / absorbance,-,NL4-3,MT-4,56.4 µM
Nc1ccn([C@H]2CO[C@@H](CO)O2)c(=O)n1,-,EC50,cytopathic effect / MTT,-,RF,MT-4,0.045 µg/mL
CC(C)(C)c1ccc(C(Cn2cccc(C(F)(F)F)c2=O)NC2Cc3ccccc3C2)cc1,-,EC50,cytopathic effect,-,RF,MT-2,>15 µM
CC(C)=CCN1Cc2cc(Cl)ccc2N(C)C(=O)C1C(C)C,-,EC50,cytopathic effect / MTT,-,-,MT-4,>100 µM
CCCCCCCCCCCCCCCCO[C@H](CCl)COP(=O)(O)OCC[N+](C)(C)C,-,EC50,RT activity,-,IIIB,H9,<1 µM
C1CNCCNCCCN(CCCN2CCCNCCNCCCNCC2)CCNC1,-,EC50,cytopathic effect / MTT,-,NL4-3,MT-4,0.56 µg/mL
Cc1cn([C@H]2C[C@H](N=[N+]=[N-])[C@@H](CO)O2)c(=O)[nH]c1=O,-,EC50,p24,-,G910-6,PBMC,>10 µM
Cc1cn([C@H]2C[C@H](N=[N+]=[N-])[C@@H](CO)O2)c(=O)[nH]c1=O,-,EC50,-,-,-,PBM,0.004 µM
CCCCCCNC(=O)OCCCCCCNC(=O)OC1CCN(C(=O)Oc2ccc(Oc3ccccc3)cc2)CC1,-,EC50,cytopathic effect / syncytia / microscopy,-,IIIB,C8166,1.51 µM
O=C(O)C(=O)/C=C(\O)c1cc(/C(O)=C/C(=O)C(=O)O)c2ccccc2n1,-,EC50,p24,-,IIIB,H9,61 µM
C[C@H]1C(=O)Nc2ccc(Cl)cc2CN1Cc1ccc[nH]1,-,EC50,cytopathic effect / MTT,-,-,MT-4,>100 µM
Cc1ccc(NC(=O)NCCSCc2ccc(CNC(C)C)o2)cc1Cl,-,EC50,RT activity,-,-,MAGI,>100 µM
O=c1[nH]cnc2c1ncn2[C@H]1O[C@@H](CO)C[C@H]1F,-,EC50,-,-,-,PBM,>100 µM
CO[C@H]1CC2=C([C@H]3CC4=CC(=O)O[C@@]45C[C@@H]3N3CCC[C@@H]35)C(=O)O[C@@]23C[C@@H]1N1CCC[C@@H]13,-,EC50,MTT / absorbance,-,NL4-3,MT-4,63.9 µM
CCCC(=O)c1cccc(CN2C(=O)N(Cc3cccc(C(=O)CCC)c3)[C@H](Cc3ccccc3)[C@H](O)[C@@H](O)[C@H]2Cc2ccccc2)c1,-,EC50,-,-,RF,MT-2,<1.439 µM
Cc1cc(C#N)cc(C)c1Oc1nc(Nc2ccc(C#N)cc2)nc(N)c1Br,-,EC50,recombinant virus assay,-,Clinical isolates,-,<0.1 µM
O=C(O)P(=O)(O)O,-,EC50,plaque count,-,LAV-1,PBMC(PHA STIM.) + PBMC,22 µM
O=c1[nH]c(=O)n(C2OC(CO)CC2F)cc1I,-,EC50,-,-,-,PBM,>100 µM
Cc1cn([C@H]2C[C@H](N=[N+]=[N-])[C@@H](CO)O2)c(=O)[nH]c1=O,-,EC50,cytopathic effect / neutral red,-,NL4-3,MT-2,0.031 µM
CCC/C(=N\O)c1cccc(CN2C(=O)N(Cc3cccc(/C(CCC)=N/O)c3)[C@H](Cc3ccccc3)[C@H](O)[C@@H](O)[C@H]2Cc2ccccc2)c1,-,EC50,-,-,RF,MT-2,<0.064 µM
COC(C(=O)O)c1c(C)nc2ccc(Br)cc2c1-c1ccc(Cl)cc1,-,EC50,MTT / absorbance,-,IIIB,MT-4,5.8 µM
CCCN1Cc2cc(Cl)ccc2NC(=O)C1C,-,EC50,cytopathic effect / MTT,-,-,MT-4,540 µM
CC1(C)Oc2ccc3ccc(=O)oc3c2[C@H](OC(=O)c2cccc(Cl)c2)[C@H]1OC1CCCCO1,-,EC50,p24,-,IIIB,H9,>41 µM
Nc1nc(=O)n([C@H]2O[C@@H](CO)C[C@H]2F)cc1I,-,EC50,-,-,-,PBM,>100 µM
Cc1cn([C@H]2C[C@H](N=[N+]=[N-])[C@@H](CO)O2)c(=O)[nH]c1=O,-,EC50,plaque count,RT-T215Y,A036C (RT-T215Y),HT4 + HT4-6C,0.6 µM
CO[C@H]1CC2=CC(=O)O[C@@]23C[C@@H]1N1CCC[C@@H]13,-,EC50,MTT / absorbance,-,NL4-3,MT-4,89 µM

Repeating the final 5 entries:

smiles	setting	endpoint	method	mutations	strain	cells	result
CCCN1Cc2cc(Cl)ccc2NC(=O)C1C	-	EC50	cytopathic effect / MTT	-	-	MT-4	540 µM
CC1(C)Oc2ccc3ccc(=O)oc3c2[C@H](OC(=O)c2cccc(Cl)c2)[C@H]1OC1CCCCO1	-	EC50	p24	-	IIIB	H9	>41 µM
Nc1nc(=O)n([C@H]2O[C@@H](CO)C[C@H]2F)cc1I	-	EC50	-	-	-	PBM	>100 µM
Cc1cn([C@H]2C[C@H](N=[N+]=[N-])[C@@H](CO)O2)c(=O)[nH]c1=O	-	EC50	plaque count	RT-T215Y	A036C (RT-T215Y)	HT4 + HT4-6C	0.6 µM
CO[C@H]1CC2=CC(=O)O[C@@]23C[C@@H]1N1CCC[C@@H]13	-	EC50	MTT / absorbance	-	NL4-3	MT-4	89 µM